Results of unrelated studies side by side (data: NIAID ChemDB).

All rows: tests in culture; agent: HIV-1

Rows are shuffled and stem from different studies.

{"compound": "CC(C)(C)NC(=O)[C@@H]1C[C@@H]2CCCC[C@@H]2CN1C[C@@H](O)[C@H](Cc1ccccc1)NC(=O)[C@H](CC(N)=O)NC(=O)c1ccc2ccccc2n1", "cell line": "PBMC", "strain or isolate": "BaL", "method": "p24", "measure": "EC50", "result": "0.0172 µM"}
{"compound": "O=C(C1CSCN1C(=O)OCc1ccccc1)N1CCOCC1", "cell line": "CEM/MOLT-4", "strain or isolate": "LAV", "method": "syncytia", "measure": "EC50", "result": ">30 µM"}
{"compound": "Cc1cn([C@H]2C[C@H](N(C)O)[C@@H](CO)O2)c(=O)[nH]c1=O", "cell line": "MT-4", "strain or isolate": "IIIB", "method": "trypan blue", "measure": "EC50", "result": "0.86 µg/mL"}
{"compound": "Nc1nc(N)c2ncn([C@H]3CO[C@@H](CO)O3)c2n1", "cell line": "MT-2", "strain or isolate": "LAI", "method": "cytopathic effect / XTT", "measure": "EC50", "result": "12.5 µM"}
{"compound": "Cc1cn([C@H]2C[C@@H]3[C@@H](COCN3O)O2)c(=O)[nH]c1=O", "cell line": "CEM", "strain or isolate": "IIIB", "method": "syncytia", "measure": "EC50", "result": "20 µg/mL"}
{"compound": "Cc1cn([C@H]2C[C@H](N=[N+]=[N-])[C@@H](CO)O2)c(=O)[nH]c1=O", "cell line": "PBMC", "strain or isolate": "G762-3", "method": "p24", "measure": "EC50", "result": "0.02 µM"}
{"compound": "CC(C)=CCN1Cc2cc(Cl)cc3[nH]c(=S)n(c23)C[C@@H]1C", "cell line": "CEM + CEM-SS", "strain or isolate": "SK1", "method": "RT activity", "measure": "EC50", "result": "0.031 µM"}
{"compound": "CCn1cc(CCc2ccccc2)c(C2CCN(C[C@H]3CN([C@@H](C(=O)O)C4CCCCC4)C[C@@H]3c3ccccc3)CC2)n1", "cell line": "HeLa", "strain or isolate": "BaL", "method": "β-galactosidase", "measure": "EC50", "result": "<0.3 µM"}
{"compound": "COc1c(O)ccc(C(=O)N[C@@H](CSc2ccccc2)[C@H](O)CN2C[C@H]3CCCC[C@H]3C[C@H]2C(=O)NC(C)(C)C)c1C", "cell line": "MT-2", "strain or isolate": "IIIB", "method": "cytopathic effect / MTT", "measure": "EC50", "result": "0.6533 µM"}
{"compound": "Cc1cn([C@H]2C=C[C@@H](COP(=O)(O)OP(=O)(O)OP(=O)(O)O)O2)c(=O)[nH]c1=O", "cell line": "CEM", "strain or isolate": "LAI", "method": "cytopathic effect / MTT", "measure": "EC50", "result": "1 µM"}
{"compound": "Cc1cn([C@H]2C[C@H](N=[N+]=[N-])[C@@H](CO)O2)c(=O)[nH]c1=O", "cell line": "C8166", "strain or isolate": "IIIB", "method": "syncytia", "measure": "EC50", "result": "0.08 µM"}
{"compound": "C=C(C)[C@@H]1CC[C@]2(C(=O)O)CC[C@]3(C)[C@H](CC[C@@H]4[C@@]5(C)CC[C@H](O)C(C)(C)[C@@H]5CC[C@]43C)[C@@H]12", "measure": "EC50", "result": ">20 µM"}
{"compound": "N#Cc1ccc(Nc2nc(Oc3c(Cl)cc(Cl)cc3Cl)ncc2[N+](=O)[O-])cc1", "cell line": "MT-4", "strain or isolate": "RES056", "method": "MTT", "measure": "EC50", "result": ">25 µM"}
{"compound": "Cn1cc(N)cc1C(=O)Nc1cc(C(=O)Nc2ccc3cc(S(=O)(=O)O)cc(S(=O)(=O)O)c3c2)n(C)c1", "cell line": "CEM + CEM-SS", "strain or isolate": "IIIB", "method": "cytopathic effect / XTT", "measure": "EC50", "result": "10.7 µM"}
{"compound": "COC(=O)N[C@H](C(=O)N[C@@H](Cc1ccccc1)[C@@H](O)CN(Cc1ccc(-c2ccccn2)cc1)NC(=O)[C@@H](NC(=O)OC)C(C)(C)C)C(C)(C)C", "cell line": "MT-2", "strain or isolate": "RF", "method": "RT activity", "measure": "EC50", "result": "0.00389 µM"}
{"compound": "O=C(C1CSCN1C(=O)OCc1ccccc1)N1CCSC1", "cell line": "CEM/MOLT-4", "strain or isolate": "LAV", "method": "syncytia", "measure": "EC50", "result": ">100 µM"}
{"compound": "Cc1cc(C#N)cc(C)c1Oc1ncc(NC(=O)C(F)(F)F)c(Nc2ccc(C#N)cc2)n1", "cell line": "MT-4", "strain or isolate": "RES056", "method": "MTT", "measure": "EC50", "result": "5 µM"}
{"compound": "C[C@H](Cn1cnc2c(N)ncnc21)OCP(=O)(O)O", "cell line": "CEM", "strain or isolate": "IIIB", "method": "syncytia", "measure": "EC50", "result": "1 µg/mL"}
{"compound": "CCOC(=O)Cn1nc(Cc2ccccc2)cc1C1CCN(C[C@H]2CN([C@@H](C(=O)O)C3CCCCC3)C[C@@H]2c2ccccc2)CC1", "cell line": "HeLa", "strain or isolate": "BaL", "method": "β-galactosidase", "measure": "EC50", "result": "<0.022 µM"}
{"compound": "CC(C)(C)NC(=O)[C@@H]1C[C@@H]2CCCC[C@@H]2CN1C[C@@H](O)[C@H](Cc1ccccc1)NC(=O)O[C@@H]1CO[C@@H]2OCC[C@@H]21", "cell line": "MT-4", "strain or isolate": "IIIB", "method": "p24", "measure": "EC95", "result": "0.2 µM"}
{"compound": "CCOC(=O)P(=O)(OCOC(C)=O)OCOC(C)=O", "cell line": "H9", "strain or isolate": "IIIB", "method": "cytopathic effect / MTT", "measure": "EC50", "result": ">150 µM"}
{"compound": "Cc1cn([C@H]2C[C@H](N=[N+]=[N-])[C@@H](COP(=O)(O)OP(=O)(O)OP(=O)(O)O)O2)c(=O)[nH]c1=O", "cell line": "CEM", "strain or isolate": "LAI", "measure": "EC50", "result": "0.1 µM"}
{"compound": "CCn1ncc(Cc2ccccc2)c1C1CCN(C[C@H]2CN([C@@H](C(=O)O)C3CCCCC3)C[C@@H]2c2ccccc2)CC1", "cell line": "HeLa", "strain or isolate": "BaL", "method": "β-galactosidase", "measure": "EC50", "result": "<0.0069 µM"}
{"compound": "Cc1cn([C@H]2C[C@H](N=[N+]=[N-])[C@@H](CO)O2)c(=O)[nH]c1=O", "cell line": "CEM + CEM-SS", "strain or isolate": "N119", "method": "cytopathic effect / XTT", "measure": "EC50", "result": "4.4 µM"}
{"compound": "CC(C)(C)NC(=O)[C@@H]1C[C@@H]2CCCC[C@@H]2CN1C[C@@H](O)[C@H](Cc1ccccc1)NC(=O)O[C@H]1CO[C@H]2OCCC[C@H]21", "cell line": "MT-4", "strain or isolate": "IIIB", "method": "p24", "measure": "EC50", "result": "<0.1 µM"}
{"compound": "NC[C@@H]1O[C@H](O[C@H]2[C@@H](O)[C@H](O[C@@H]3[C@@H](O)[C@H](N)C[C@H](N)[C@H]3O[C@H]3O[C@H](CN)[C@@H](O)[C@H](O)[C@H]3N)O[C@@H]2CO)[C@H](N)[C@@H](O)[C@@H]1O", "setting": "chronic infection", "cell line": "U1/HIV-1 + U1", "method": "p24 / ELISA", "measure": "EC50", "result": "<100 µM"}
{"compound": "Cc1cc(C=O)cc(C)c1Oc1ncc(NC(=O)C(F)(F)F)c(Nc2ccc(C#N)cc2)n1", "cell line": "MT-4", "strain or isolate": "IIIB", "method": "MTT", "measure": "EC50", "result": "0.48 µM"}
{"compound": "CCc1c(C(=O)c2cc(C)cc(C)c2)n(CC2CC=CC2)c(=O)[nH]c1=O", "setting": "clinical isolate", "cell line": "PBMC", "strain or isolate": "CLADE D", "method": "cytopathic effect / XTT", "measure": "EC50", "result": "0.0008 µM"}
{"compound": "Cc1cn([C@H]2C[C@H](N=[N+]=[N-])[C@@H](CO)O2)c(=O)[nH]c1=O", "cell line": "PBMC", "strain or isolate": "CLADE E", "method": "cytopathic effect / XTT", "measure": "EC50", "result": "0.003 µM"}
{"compound": "O=C1CC(c2ccccc2)Oc2cc(OC3O[C@H](CO)[C@@H](O)[C@H](O)[C@H]3O)ccc21", "measure": "EC50", "result": ">20 µM"}
{"compound": "CC(C)(C)NC(=O)[C@@H]1C[C@@H]2CCCC[C@@H]2CN1C[C@@H](O)[C@H](Cc1ccccc1)NC(=O)OC12CCOC1OCC2", "cell line": "MT-4", "strain or isolate": "IIIB", "method": "p24", "measure": "EC95", "result": ">0.2 µM"}
{"compound": "N#Cc1ccc(Nc2nc(Oc3c(Cl)cccc3Cl)ncc2[N+](=O)[O-])cc1", "cell line": "MT-4", "strain or isolate": "IIIB", "method": "MTT", "measure": "EC50", "result": "3.2 µM"}
{"compound": "CC(C)(C)NC(=O)[C@@H]1C[C@@H]2CCCC[C@@H]2CN1C[C@@H](O)[C@H](Cc1ccccc1)NC(=O)O[C@H]1CO[C@H]2OCC[C@H]21", "cell line": "MT-4", "strain or isolate": "IIIB", "method": "p24", "measure": "EC50", "result": "<0.046 µM"}
{"compound": "O=C(C1CSCN1C(=O)OCc1ccccc1)N1CCCC1", "cell line": "CEM/MOLT-4", "strain or isolate": "LAV", "method": "syncytia", "measure": "EC50", "result": ">100 µM"}
{"compound": "O=C(O)P(=O)(O)O", "cell line": "H9", "strain or isolate": "IIIB", "method": "cytopathic effect / MTT", "measure": "EC50", "result": "<8 µM"}
{"compound": "CCn1nc(-c2ccc(C#N)cc2)cc1C1CCN(C[C@H]2CN([C@@H](C(=O)O)C3CCCCC3)C[C@@H]2c2ccccc2)CC1", "cell line": "HeLa", "strain or isolate": "BaL", "method": "β-galactosidase", "measure": "EC90", "result": ">0.3 µM"}
{"compound": "Cc1cc(Br)cc(C)c1Oc1ncc(NC(=O)C(F)(F)F)c(Nc2ccc(C#N)cc2)n1", "cell line": "MT-4", "strain or isolate": "RES056", "method": "MTT", "measure": "EC50", "result": "11 µM"}

A second listing of 5 rows from above:

{"compound": "C[C@H](Cn1cnc2c(N)ncnc21)OCP(=O)(O)O", "cell line": "CEM", "strain or isolate": "IIIB", "method": "syncytia", "measure": "EC50", "result": "1 µg/mL"}
{"compound": "Cc1cn([C@H]2C[C@H](N=[N+]=[N-])[C@@H](COP(=O)(O)OP(=O)(O)OP(=O)(O)O)O2)c(=O)[nH]c1=O", "cell line": "CEM", "strain or isolate": "LAI", "measure": "EC50", "result": "0.1 µM"}
{"compound": "CC(C)(C)NC(=O)[C@@H]1C[C@@H]2CCCC[C@@H]2CN1C[C@@H](O)[C@H](Cc1ccccc1)NC(=O)OC12CCOC1OCC2", "cell line": "MT-4", "strain or isolate": "IIIB", "method": "p24", "measure": "EC95", "result": ">0.2 µM"}
{"compound": "Cc1cc(C#N)cc(C)c1Oc1ncc(NC(=O)C(F)(F)F)c(Nc2ccc(C#N)cc2)n1", "cell line": "MT-4", "strain or isolate": "RES056", "method": "MTT", "measure": "EC50", "result": "5 µM"}
{"compound": "Cc1cn([C@H]2C[C@@H]3[C@@H](COCN3O)O2)c(=O)[nH]c1=O", "cell line": "CEM", "strain or isolate": "IIIB", "method": "syncytia", "measure": "EC50", "result": "20 µg/mL"}

ECn: concentration that inhibits the pathogen or its effect by n%.